Reference: paper PMC11098500
Several values for one entry are separate records, joined by “and”; a condition that tells them apart may be missing. Equal values may be shown once.

Tests used:
[1] = target: domestic dog ACE2 ectodomain (residues 1-614), Fc-tagged (domestic dog); test: SPR
[2] = target: human ACE2 ectodomain (residues 1-615), Fc-tagged (human) (UniProt Q9BYF1); test: SPR

Substance | koff [1] | kon [1] | Kd [2] [nM]
SARS-CoV-2 RBD (prototypic strain, residues 319-529), His-tagged (from UniProt P0DTC2 319-529) (domain or fragment) | 0.457 s⁻¹ and 0.546 s⁻¹ and 0.335 s⁻¹ | 882000 M⁻¹ s⁻¹ and 1.04e+06 M⁻¹ s⁻¹ and 652000 M⁻¹ s⁻¹ | 
SARS-CoV-2 RBD (residues 319-529), His-tagged (from UniProt P0DTC2 319-529) (domain or fragment; other documents disagree on this pair) |  |  | 31.7
